## Single amino acid changes in Zika NS2B-NS3 and viral growth

Chain scanned (Zika virus MR766; NS2B from position 2 to 131, then the start of NS3):
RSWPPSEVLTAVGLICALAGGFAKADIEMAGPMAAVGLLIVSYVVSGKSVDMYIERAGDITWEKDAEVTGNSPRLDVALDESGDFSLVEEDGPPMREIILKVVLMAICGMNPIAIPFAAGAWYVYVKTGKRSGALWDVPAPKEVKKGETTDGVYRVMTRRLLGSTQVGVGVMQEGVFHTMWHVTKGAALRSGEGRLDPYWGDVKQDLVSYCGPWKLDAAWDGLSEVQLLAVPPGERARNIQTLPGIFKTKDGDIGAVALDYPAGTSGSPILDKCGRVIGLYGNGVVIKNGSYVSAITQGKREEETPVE

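Pools of virus carrying all single amino acid changes were selected for growth in Huh-7.5 cells. Sequencing of three replicate libraries (two for positions 207-308) was averaged into one effect per change. The aim was to find sites where inhibitor-binding pockets cannot change.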

The number is log2 of the effect relative to wild type; negative values mean reduced growth, higher values better tolerance.
Substitutions are written as wild-type residue, site number, new residue.
The region was split into three libraries (1-103, 104-206, 207-308).
The authors count -1 or higher as tolerated. Position 1 is the last residue of NS2A.
Values above 0 are not proof of better growth: six high scorers were tested one by one, five grew less well than wild type and one about as well.
An asterisk is a stop codon; stop codons read about -7, near the floor of the assay.

mutation,log2 growth effect
A17F,-4.79
A17V,-2.35
G21P,-6.96
A30V,-0.69
G31R,-7.86
M33*,-8.42
A34K,-4.91
V44M,-5.32
M52E,-5.71
E55K,-5.64
E55W,-6.23
R56Y,-0.78
V68*,-7.30
G70*,-3.97
V77T,-7.44
L87E,-6.86
V88G,-6.26
D91E,-0.46
G92P,-6.71
A119G,-2.31
A119H,-5.76
T128V,-6.61
R131E,-5.67
W136L,-6.25
V144E,-3.56
K145C,-1.42
K146P,-1.08
Q166S,-6.96
V167L,-6.34
G168V,-2.83
Q173G,-6.25
E174L,-6.19
K185C,-4.10
R190N,-2.58
R195G,-5.66
R195K,-5.94
L207*,-9.43
Y210S,-8.23
G212S,-8.07
D217K,-5.82
L223G,-1.48
S224K,-5.64
V226G,-6.18
Q227G,-6.15
P232Y,-4.64
P244M,-4.33
P244V,-5.31
G245H,-5.18
G252K,-2.40
D253T,-1.82
A256F,-5.88
V257M,-4.15
A258Q,-5.01
T265D,-3.08
P269V,-5.81
D272E,-4.05
K273Y,-2.74
Y281W,-4.51
V286R,-6.40
Q298D,-3.57
Q298F,-3.87
Q298T,-5.76
T305Q,0.26
P306L,-1.40

Extract of 7 entries:

With L87E the assay gave -6.86.
With T265D the assay gave -3.08.
With E55W the assay gave -6.23.
With V286R the assay gave -6.40.
With A256F the assay gave -5.88.
With L207* the assay gave -9.43.
With K145C the assay gave -1.42.

Source: Ni et al. 2025 (doi:10.1038/s41467-025-63602-z), supplementary data.